A mixed list of measured activities; the numbers were collected in NIAID ChemDB.

All rows: cytotoxicity tests; cells: H9; endpoint: CC50

Lines come from different laboratories, so protocols vary.

structure | method | value
CCOC(=O)c1cc(C(=O)c2ccc(N)cc2)n2ccc(C(=O)NCc3ccccn3)cc12 | MTT | 159.5 µM
CC1(C)CC=C(c2cn(-c3nccc(C(=O)NC4CCC(N5CC6CCC(C5)O6)CC4)n3)c3ccc(F)c([C@H](OC(C)(C)C)C(=O)O)c23)CC1 | luminescence | 6.823 µM
Cc1c(CBr)c(=O)oc2c3c(ccc12)OC(C)(C)[C@H](OC(=O)C12CCC(C)(C(=O)O1)C2(C)C)[C@@H]3OC(=O)C12CCC(C)(C(=O)O1)C2(C)C | XTT | >20.9 µM
Cc1ccc(S(=O)(=O)Nc2cccc3cccnc23)cc1 | ATP | >20 µM
CC1(C)Oc2ccc3cc(CBr)c(=O)oc3c2[C@@H](OC(=O)C23CCC(C)(C(=O)O2)C3(C)C)[C@H]1OC(=O)C12CCC(C)(C(=O)O1)C2(C)C | XTT | >11.1 µM
CCOC(=O)c1cc(C(=O)c2ccc3ccccc3c2)n2ccc(C(=O)c3ccccc3)cc12 | MTT | 167.4 µM
CCOC(=O)c1cc(C(=O)c2ccc(Cl)cc2)n2ccc(C(=O)NCc3ccccn3)cc12 | MTT | 142.2 µM
COc1cc2c(cc1Cc1cccc(Cl)c1F)c(=O)c(C(=O)O)cn2[C@H](CO)C(C)C | luminescence | 4.818 µM
CCOC(=O)c1cc(C(=O)c2cccs2)n2ccc(C(=O)NCc3ccccn3)cc12 | MTT | 53.4 µM
O=S(=O)(Nc1cccc2cccnc12)c1ccccc1F | ATP | >20 µM
O=C1CCC(=O)N1CCCCCCc1ccc2c3ccccc3c3ccccc3c2c1 | trypan blue | >100 µM
N.O=S(=O)(NCc1ccccc1)c1ccc(F)cc1F | ATP | >20 µM
CCOC(=O)c1cc(C(=O)c2ccccc2)n2ccc(C(=O)NCc3cccnc3)cc12 | MTT | 114.1 µM
CC1(C)Oc2ccc3ccc(=O)oc3c2[C@@H](OC(=O)C23CCC(C)(C(=O)O2)C3(C)C)[C@H]1OC(=O)C12CCC(C)(C(=O)O1)C2(C)C | XTT | >16.1 µM
CCOC(=O)c1cc(C(=O)c2ccc(F)cc2)n2ccc(C(=O)NCc3ccccn3)cc12 | MTT | 81.6 µM
Cc1cn([C@H]2C[C@H](N=[N+]=[N-])[C@@H](CO)O2)c(=O)[nH]c1=O | XTT | 1872 µM
CCOC(=O)c1cc(C(=O)c2cccc(N)c2)n2ccc(C(=O)NCc3ccccn3)cc12 | MTT | 133.5 µM
c1cc(-c2nc3ccccc3[nH]2)nc(-c2nc3ccccc3[nH]2)c1 | cell count | 21 µg/mL
CCOC(=O)c1cc(C(=O)c2ccccc2)n2ccc(C(=O)NCc3ccco3)cc12 | MTT | 98.2 µM
CCOC(=O)c1cc(C(=O)c2ccc(F)c(N)c2)n2ccc(C(=O)NCc3ccccn3)cc12 | MTT | 120.5 µM
O=c1nccc(NS(=O)(=O)c2ccc(F)cc2F)[nH]1 | ATP | >20 µM
CCOC(=O)c1cc(C(=O)c2cccc(N)c2)n2ccc(C(=O)NCc3ccccn3)cc12 | MTT | 133.5 µM
CCN(c1cccc2cccnc12)S(=O)(=O)c1ccc(F)cc1F | ATP | >50 µM
CCOC(=O)c1cc(C(=O)c2ccccc2)n2cccc(C(=O)NCc3ccccn3)c12 | MTT | 154.2 µM

A second listing of 2 rows from above:

{"structure": "CCOC(=O)c1cc(C(=O)c2ccc(F)c(N)c2)n2ccc(C(=O)NCc3ccccn3)cc12", "method": "MTT", "value": "120.5 µM"}
{"structure": "O=C1CCC(=O)N1CCCCCCc1ccc2c3ccccc3c3ccccc3c2c1", "method": "trypan blue", "value": ">100 µM"}

CCn: concentration that lowers growth or viability of the cells by n%.